Reference: US10023484B2, “Use of peracetic acid/hydrogen peroxide and peroxide-reducing agents for treatment of drilling fluids, frac fluids, flowback water and disposal water” (Ecolab USA Inc., priority 2012, dated 2018)

Assays:
[1] = Catalase (ES2000) amount needed in treated water source, iodometric titration (Example 15); assay type: physicochemical
Procedure: Field of use applications were analyzed to determine the amount of a peroxide-reducing enzyme necessary to obtain desired concentrations of both peracid and hydrogen peroxide in a treated water source. EnviroSan (POAA) peracid composition was added to water to reach the targeted POAA concentrations set forth in Table 18, and the concentration of both POAA and H2O2 were confirmed by iodometric titration. Then catalase (ES2000) was added to the solution, and the sample was stored under ambient conditions. The concentration of POAA and H2O2 were monitored by the iodometric conditions.

[2] = Wheel box corrosion test, weight loss of 1018 carbon steel coupon; conditions: 1000 ppm catalase added to PAA/H2O2 treatment, 24 hours

Catalase
catalase level sufficient for treating the water source [1]: ~1 ppm | selectivity of H2O2 decomposition versus POAA ([1]; ambient conditions): selectively decomposes the H2O2 | lowest catalase level that treated pond water with POAA and H2O2 ([1]; within 4 hours): 0.5 ppm | reduction in corrosion rates ([2]; deionized water): ~60% | decrease of corrosion rates of 1018 carbon steel ([2]; produced water): 30-50%
